According to patent US20240343781A1:

Molecular target: SARS-CoV-2 Spike (SARS-CoV-2) (UniProt P0DTC2)
Test: SPR

Substance | Kd
CB6 | 0.183 nM
hACE2-Fc | 5.21 nM
